IC50 data for 1 compound are collected here from patent US20230346797A1, “INHIBITORS OF THE PLASMODIAL SURFACE ANION CHANNEL AS ANTIMALARIALS” (The United States of America,as represented by the …, priority 2008, published 2023).

The experiment relates to P. falciparum. The experiment is described as follows: In vitro parasite growth inhibition, SYBR Green I-based fluorescence assay for parasite nucleic acid. The conditions noted are these: read-out: In vitro growth inhibitory IC50; 3 days culture.

pIC50: −log10 of the molar value.

With `CCCCN(CC)C(=O)c1cc2cc3ccc(C)cc3nc2o1`, the negative-log IC50 (pIC50) – broadly, the IC50 on a negative log10 scale, so that one unit is a factor of ten – was 5.05.
